Results on five molecules are retold here after publication PMC6479402, “Anti-Herpetic, Anti-Dengue and Antineoplastic Activities of Simple and Heterocycle-Fused Derivatives of Terpenyl-1,4-Naphthoquinone and 1,4-Anthraquinone” (Molecules, 2019).

The test system of one data set is HeLa. Kind of data set: MTT cytotoxicity assay. The following applies: HeLa vs Vero; 48 h. It counts as cell-based, human. As to the method: (§1) Then, each diluted molecule was added to the cells and incubated for further 48 h at 37 °C, 5% CO2. […] The DMSO was then added to dissolve the formed formazan crystals and absorbance was determined spectrophotometrically at 570 nm. […] IC50 values were expressed as the mean ± standard deviation (M ± SD) of two independent experiments done in quadruplicate.

A further data set relates to Jurkat. Kind of data set: MTT cytotoxicity assay. It counts as cell-based, human. Conditions: Jurkat vs Vero; 48 h. As to the method:
as §1

SMILES strings stand for the structures.

With `CC1(C)CCCc2cc3c(cc21)C(=O)C(Cl)=C(Cl)C3=O` [AQ 12], in the data set on HeLa, the “SI (IC50 Vero/IC50 HeLa)” value came to 4. Besides, the “SI (IC50 Vero/IC50 Jurkat)” value in the data set on Jurkat is reported as 5.
Taken in the same sequence, the figures for `Cc1ccc2[nH]c3c(c2c1)C(=O)c1ccc(CCCC(C)C)cc1C3=O` [HetQ 19] were 3 and less than 3.
The like results for `Cc1cc(C)c2c3c(oc2c1)C(=O)c1cc(CCCC(C)C)ccc1C3=O` [HetQ 20] were, in that order, less than 2 and 4.
Taken in the same sequence, the figures for `CCn1c(C)c(C(=O)OC)c2c1C(=O)c1cc3c(cc1C2=O)C(C)(C)CCC3` [HetQ 22] were 3 and 3.
As for `CC(C)CCCc1ccc2c(c1)C(=O)C(Br)=C(Br)C2=O` [NQ 5], the “SI (IC50 Vero/IC50 HeLa)” value in the data set on HeLa was found to be 1. In addition, in the data set on Jurkat, the “SI (IC50 Vero/IC50 Jurkat)” value amounted to 1.
